Earlier results in patent publication US20080145918A1, “Method for the Detoxification of a Hazardous Compound” (published 2008).

tested on: experimental animal; conditions: oral toxicity, dosage at which 50% of the used experimental animal died; cited from earlier work

Molecule	LD50
inorganic arsenic(V(valency))	14 to 18 mg/kg
arsenocholine	6,000 mg/kg
arsenobetaine	10000 mg/kg
Inorganic arsenic(III(valency))	4.5 mg/kg
C[As](=O)(O)O	1,800 mg/kg
trimethylarsineoxide	10,600 mg/kg
